## Potato spindle tuber viroid, loop 15: variant abundance in plants

Data from the supplement of Wu et al. 2024, doi:10.1371/journal.ppat.1012142.

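A pool of all variants was put on leaves of three Nicotiana benthamiana plants. Progeny were sequenced from the inoculated region (day 5), the margin of the inoculated leaf (day 10) and systemic leaves (day 12).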

The pool varies loop 15 of the PSTVd intermediate strain in the pattern GGAAACCGNNNNNNC; wild type is GGAAACCGCUACUAC (upper and lower strand joined, each 5' to 3', the first 7 letters being the upper strand, closing pairs included).

Numbers give reads per thousand; 0 = not seen among the reads, higher = more abundant. Each site shows the three plants. "Pool" is the share in the plasmid pool used as inoculum, on the same scale. The inoculated region was read from the minus strand, the other sites from the plus strand. IR is the inoculated region, LM the leaf margin, Sys the systemic leaves. Sequences that differ at fixed positions probably stem from PCR or sequencing errors, and defective variants can be carried along by functional ones.

sequence	pool	IR	LM	Sys
GGAAACCGCAUAUAC	0.320	0.246 / 0.369 / 0.267	0.0647 / 0.0445 / 0.0601	0.0322 / 0 / 0
GGAAACCGUUGGGGC	0.256	0.164 / 0.129 / 0.0762	0.0162 / 0 / 0	0 / 0 / 0
GGAAACCGCCACUCC	0.336	0.295 / 0.193 / 0.400	0.0323 / 0 / 0.120	0.0322 / 0 / 0
GGAAACCGGAGUAUC	0.192	0.0983 / 0.0803 / 0.114	0.0323 / 0 / 0	0 / 0 / 0
GGAAACCGAAGAUCC	0.352	0.0655 / 0.112 / 0.152	0 / 0.0223 / 0	0 / 0 / 0
GGAAACCGGCAGCUC	0.192	0.0655 / 0.177 / 0.0762	0 / 0 / 0.0200	0 / 0 / 0
GGAAACCGAGCACAC	0.272	0.0655 / 0.145 / 0.152	0 / 0 / 0.0200	0 / 0 / 0
GGAAACCGGCAUAUC	0.240	0.0819 / 0.112 / 0.133	0 / 0 / 0	0 / 0 / 0
GGAAACCGCCGUGCC	0.192	0.115 / 0.129 / 0.0952	0.0162 / 0 / 0.0401	0 / 0 / 0
GGAAACCGUUCCCUC	0.160	0.115 / 0 / 0.171	0 / 0 / 0	0 / 0 / 0
GGAAACCGAAAUCGC	0.208	0.0655 / 0.0643 / 0.0571	0 / 0 / 0.0401	0 / 0 / 0
GGAAACCGACGUCGC	0.288	0.0655 / 0.0643 / 0.114	0.0162 / 0 / 0	0 / 0 / 0
GGAAACCGUUAACUC	0.240	0.360 / 0.321 / 0.248	0.113 / 0.0445 / 0.0601	0 / 0.0908 / 0.0456
GGAAACCGAUAUGGC	0.176	0.0655 / 0.0964 / 0.0952	0.0162 / 0.0223 / 0	0 / 0 / 0
GGAAACCGUCUUAUC	0.192	0.393 / 0.482 / 0.362	0.0162 / 0.0223 / 0	0.0161 / 0.0151 / 1.30
GGAAACCGGUCAGGC	0.192	0.131 / 0.145 / 0.171	0 / 0.0223 / 0.0200	0 / 0 / 0
GGAAACCGGUGAUGC	0.304	0.115 / 0.0643 / 0.0571	0 / 0 / 0.0200	0 / 0 / 0
GGAAACCGAUCGAAC	0.256	0.246 / 0.305 / 0.381	0.113 / 0.0668 / 0.180	0.0644 / 0.0151 / 0.0456
GGAAACCGCCUGAGC	0.176	0.164 / 0.209 / 0.190	0 / 0 / 0	0 / 0 / 0.0228
GGAAACCGAGUAAGC	0.176	0.246 / 0.161 / 0.209	0.0162 / 0 / 0.0200	0 / 0 / 0
GGAAACCGGCUACUC	0.160	0.0983 / 0.129 / 0.0952	0 / 0 / 0	0 / 0 / 0
GGAAACCGCAAAUGC	0.112	0.0983 / 0.0643 / 0.0762	0.0162 / 2.05 / 0.0601	0 / 0 / 0
GGAAACCGCCAAUGC	0.0800	0.262 / 0.353 / 0.305	0.146 / 0.0668 / 0.140	0.0644 / 0.0605 / 0.114
GGAAACCGUGACAUC	0.208	0.115 / 0.0803 / 0.0381	0 / 0.0445 / 0	0 / 0 / 0
GGAAACCGCACUGCC	0.160	0.0164 / 0.129 / 0.0952	0 / 0.0223 / 0	0 / 0 / 0
GGAAACCGUGCGAGC	0.272	0.0491 / 0.0803 / 0.0762	0.0162 / 0 / 0.0200	0 / 0 / 0
GGAAACCGAUGAGAC	0.160	0.164 / 0.112 / 0.0952	0.0162 / 0.0223 / 0	0 / 0 / 0
GGAAACCGCAUACCC	0.240	0.0655 / 0.0482 / 0.0571	0.0162 / 0 / 0.0401	0 / 0 / 0
GGAAACCGCUGUCUC	0.288	0.115 / 0.0482 / 0.0952	0 / 0 / 0.0200	0.0161 / 0 / 0
GGAAACCGAUCCGAC	0.192	0.131 / 0.0643 / 0.0381	0 / 0.0223 / 0.0200	0.0161 / 0 / 0
GGAAACCGUGGCUCC	0.144	0.0983 / 0.0482 / 0.0571	0.0162 / 0.0223 / 0.0401	0 / 0 / 0
GGAAACCGCGGCGUC	0.272	0.164 / 0.0803 / 0.0762	0 / 0 / 0.0200	0 / 0 / 0
GGAAACCGGGCAUCC	0.240	0.147 / 0.0964 / 0.114	0.0162 / 0 / 0	0 / 0 / 0
GGAAACCGGAGCGAC	0.160	0.295 / 0.129 / 0.152	0 / 0.0223 / 0.0200	0 / 0 / 0
GGAAACCGUGUGUUC	0.208	0.246 / 0.193 / 0.362	0.0970 / 0.0668 / 0.120	0.0805 / 0.0605 / 0.0684
GGAAACCGUGGCGGC	0.176	0.229 / 0.209 / 0.133	0 / 0.0223 / 0	0 / 0 / 0
GGAAACCGUGAAUAC	0.272	0.377 / 0.177 / 0.286	0.129 / 0.178 / 0.140	0.0322 / 0.0151 / 0.0912
GGAAACCGAGAGUCC	0.208	0.262 / 0.386 / 0.305	0.0970 / 0.0891 / 0.100	0.0644 / 0.0756 / 0.0912
GGAAACCGCAUAUGC	0.304	0.164 / 0.145 / 0.0762	0.0162 / 0 / 0	0 / 0 / 0.0228
GGAAACCGACAUCAC	0.224	0.344 / 0.402 / 0.419	0.129 / 0.0891 / 0.100	0.0322 / 0.0151 / 0.0228
GGAAACCGUUGGCAC	0.288	0.0655 / 0.0964 / 0.114	0 / 0 / 0.0401	0 / 0 / 0
GGAAACCGAGGCAUC	0.320	0.0655 / 0.0482 / 0.0762	0 / 0.0223 / 0.0200	0 / 0 / 0
GGAAACCGGUCACAC	0.240	0.164 / 0.129 / 0.0571	0.0162 / 0 / 0.0200	0 / 0 / 0
GGAAACCGUCAGCCC	0.256	0.0655 / 0.0482 / 0.171	0 / 0 / 0.0401	0 / 0 / 0
GGAAACCGCGUCUCC	0.416	0.147 / 0.0964 / 0.0762	0.0162 / 0.0223 / 0.0401	0 / 0 / 0
GGAAACCGCAUCCAC	0.128	0.0983 / 0.0964 / 0.133	0 / 0 / 0	0.0161 / 0 / 0
GGAAACCGUAACCUC	0.368	0.197 / 0.353 / 0.286	0.0485 / 0.0445 / 0.160	0.0161 / 0 / 0
GGAAACCGAAACCUC	0.336	0.0491 / 0.0803 / 0.152	0 / 0 / 0.0401	0.0161 / 0 / 0
GGAAACCGCUCAAUC	0.240	0.115 / 0.161 / 0.0571	0 / 0 / 0	0 / 0 / 0
GGAAACCGCCGCUGC	0.192	0.0983 / 0.112 / 0.133	0 / 0 / 0.0200	0 / 0 / 0
GGAAACCGAAUUUCC	0.224	0.0819 / 0.129 / 0.133	0 / 0 / 0.0200	0 / 0 / 0
GGAAACCGAGCAGCC	0.128	0.0819 / 0.0321 / 0.133	0 / 0 / 0	0.0161 / 0 / 0
GGAAACCGCUCGUAC	0.256	0.377 / 0.353 / 0.609	0.0808 / 0.0445 / 0.180	0.0322 / 0.0756 / 0.0456
GGAAACCGCCCCGUC	0.176	0.131 / 0.193 / 0.133	0 / 0.0223 / 0	0 / 0.0151 / 0

For reference, wild type rose from 33.9 per thousand in the pool to 202, 200, 159 (inoculated region), 724, 746, 710 (leaf margin) and 856, 883, 880 (systemic leaves). Samples held 43,870 to 66,106 reads, so the smallest values rest on one or two reads.